Measured values from several laboratories, pooled; numbers as filed in NIAID ChemDB.

Common to all: host cell toxicity; cells: H9; endpoint: CC50

Blank or dashed fields: not listed here. Lines come from different laboratories, so protocols vary. CCn: concentration that lowers growth or viability of the cells by n%.

structure,read by,value
Cn1ccc(=O)c2cnc(-c3ccncc3)nc21,-,>100 µM
CC1(C)Oc2ccc3cc(CO)c(=O)oc3c2[C@@H](OC(=O)C23CCC(C)(C(=O)O2)C3(C)C)[C@H]1OC(=O)C12CCC(C)(C(=O)O1)C2(C)C,-,35.35 µM
CC(C)C(NC(=O)C[C@@H]1O[C@@H]1[C@H](Cc1ccccc1)NC(=O)[C@H](CS(C)(=O)=O)NC(=O)c1ccc2ccccc2n1)C(C)C,-,>100 µM
CCN(CC)CCNc1nc(NCCCCNC(=O)CCCCC(=O)NCCCCNc2nc3c(c(NCCN(CC)CC)n2)CC=CC3)nc2c1CC=CC2,-,>50 µM
COc1cc([C@H]2c3c(cc(OC)c(OC)c3OC)C[C@H]3CSC[C@@H]32)cc(OC)c1OC,-,24.5 µM
O=C1OCC2OC(O)C(O)C(O)C2OC(=O)c2cc(O)c(O)c(O)c2-c2c(O)c(O)c3oc(=O)c4c(c(O)c(O)c5oc(=O)c2c3c54)-c2c1cc(O)c(O)c2O,-,>100 µg/mL
CCCn1ccc(=O)c2cnc(-c3ccncc3)nc21,-,30 µM
COc1ccc([C@H]2c3c(cc4c(c3OC)OCO4)C[C@H]3CSC[C@@H]32)cc1OCc1ccccc1,-,840 µM
Nc1nc2c(ncn2[C@H]2CC[C@@H](CO)O2)c(=O)o1,-,>30 µg/mL
CCC(C)C(=O)OC1c2c(ccc3ccc(=O)oc23)OC(C)(C)C1OC(=O)C(C)CC,-,100.8 µM
CN(C)c1ncnc2c1ncn2[C@@H]1O[C@H](CO)[C@@H](N)[C@H]1O,-,>10 µg/mL
COc1ccc2c(c1OC)C(CC(C)=O)N(C)c1c-2ccc2cc3c(cc12)OCO3,-,25.8 µM
CC(C)[C@H](Cc1ccccc1)NC(=O)C[C@@H]1O[C@@H]1[C@H](Cc1ccccc1)NC(=O)[C@H](CS(C)(=O)=O)NC(=O)c1ccc2ccccc2n1,-,>100 µM
CCn1ccc(=O)c2ccc(-c3ccncc3)nc21,-,27 µM
CCOC(=O)c1c(Br)c(OC)c2c(c1-c1c3c(c(OC)c(Br)c1C(=O)O)OCO3)OCO2,-,>100 µg/mL
CCCCCCCCCCCCCCCCCCCCCCOCC(C)(COCCCCCCCCCCCCCCCCCCCCCC)CO[C@]1(C(=O)O)C[C@H](OS(=O)(=O)O)[C@@H](NC(C)=O)[C@H]([C@H](OS(=O)(=O)O)[C@@H](COS(=O)(=O)O)OS(=O)(=O)O)O1,-,>100 µg/mL
CC1(C)Oc2ccc3ccc(=O)oc3c2C(O)C1OCc1ccccc1,-,116.1 µM
CCNc1cccnc1N1CCN(Cc2cc(C)c(OC)c(C)c2)CC1,-,10 µM
CC1(C)Oc2ccc3ccc(=O)oc3c2[C@H](OC(=O)C23CCC(C)(C(=O)O2)C3(C)C)[C@@H]1OC(=O)C12CCC(C)(C(=O)O1)C2(C)C,-,1700 µM
C=C(CC[C@@H](C)[C@H]1CC=C2C3=C([C@@H](O)[C@H](OC(C)=O)[C@@]21C)[C@@]1(C)C[C@@H](O)[C@H](OC(=O)CCC(=O)O)C(C)(C)[C@@H]1CC3)C(C)C,MTT,<12.5 µM
C[C@H](CCC(=O)O)[C@H]1CC[C@H]2[C@@H]3CC[C@@H]4C[C@H](O)CC[C@]4(C)[C@H]3C[C@H](O)[C@]12C,-,>500 µg/mL
O=C(/C=C/c1ccc(O)c2c1[C@H](C(=O)O)[C@@H](c1ccc(O)c(O)c1)O2)O[C@H](Cc1ccc(O)c(O)c1)C(=O)O,MTT,>297 µM
C=C(C)[C@@H]1CC[C@]2(COC(=O)CC3(CC(=O)O)CCCC3)CC[C@]3(C)[C@H](CC[C@@H]4[C@@]5(C)CC=CC(C)(C)[C@@H]5CC[C@]43C)[C@@H]12,-,36.2 µM
O[C@H]1OC[C@H](Cc2ccc3c(c2)OCO3)[C@H]1Cc1ccc2c(c1)OCO2,-,>100 µg/mL
O=C(O[C@@H]1O[C@H](CO)[C@@H](O)[C@H](O)[C@H]1O)c1cc(O)c(O)c(O)c1,-,80 µM
O=C(NCCCNc1ncccn1)c1cccc(C(=O)NCCCNc2ncccn2)c1,-,>50 µM
CC(C)C(NC(=O)C[C@@H]1O[C@@H]1[C@H](Cc1ccccc1)NC(=O)[C@@H](NC(=O)c1ccc2ccccc2n1)C(C)(C)S(C)(=O)=O)C(C)C,-,>100 µM
CCc1cc(CCN2C(=O)c3ccccc3C2=O)c(=O)[nH]c1C,-,>0.06 µM
COc1ccc(C(=O)Oc2cc(OC)c(OC)c(OC)c2)cc1NC(=O)C(C)Br,MTT,3.638 µM
CCN(CC)CCNc1ccnc(NCCCNC(=O)CCC(=O)NCCCNc2nccc(NCCN(CC)CC)n2)n1,-,>50 µM
CC1(C)CC[C@]2(C(=O)O)CC[C@]3(C)C(=CC[C@@H]4[C@@]5(C)CC[C@H](OC(=O)CC(C)(C)C(=O)O)C(C)(C)[C@@H]5CC[C@]43C)[C@@H]2C1,-,19.2 µM
Cc1cn([C@H]2C[C@H](N=[N+]=[N-])[C@@H](CO)O2)c(=O)[nH]c1=O,-,1875 µM
O=C(OC[C@H]1O[C@@H](OC(=O)c2cc(O)c(O)c(O)c2)[C@H](OC(=O)c2cc(O)c(O)c(O)c2)[C@@H](OC(=O)c2cc(O)c(O)c(O)c2)[C@@H]1OC(=O)c1cc(O)c(O)c(O)c1)c1cc(O)c(O)c(O)c1,-,19 µM
O=c1[nH]c(=S)ccn1[C@@H]1O[C@H](COP(=O)(O)O)[C@@H](O)[C@H]1O,XTT,>200 µM
CCOC(=O)c1cc(C(=O)c2ccc3ccccc3c2)n2ccc(C(=O)NCc3ccccn3)cc12,MTT,123.9 µM
CC(C)[C@H](Cc1ccccc1)NC(=O)C[C@@H]1O[C@@H]1[C@H](Cc1ccccc1)NC(=O)[C@@H](NC(=O)CN1CCCC1)C(C)(C)S(C)(=O)=O,-,>100 µM
Fc1ccc(OCCC(Cn2ccnc2)c2ccc(Cl)cc2Cl)cc1,WST / absorbance,60.1 µM
Cc1cn([C@H]2C[C@H](N=[N+]=[N-])[C@@H](CO)O2)c(=O)[nH]c1=O,-,1873 µM
CCOC(=O)c1cc(C(=O)c2ccc3ccccc3c2)n2ccc(C(=O)N[C@@H](CCSC)C(=O)OC)cc12,MTT,43.3 µM
CC(=O)O[C@H]1[C@H](O)C2=C(CC[C@H]3C(C)(C)[C@@H](OS(=O)(=O)O)[C@H](OC(=O)CCCCCCCCCCCCCCCO)C[C@]23C)C2=CC[C@H]([C@H](C)CCC3(C(C)(C)O)CO3)[C@]21C,MTT,<12 µM
CC(C)[C@@H](NC(=O)C[C@@H]1O[C@@H]1[C@H](Cc1ccccc1)NC(=O)[C@@H](NC(=O)c1cc(=O)c2ccccc2o1)C(C)(C)S(C)(=O)=O)c1ccccc1,-,>100 µM
Nc1ncnc2c1ncn2[C@@H]1O[C@H](CO)C[C@H]1N1CCOCC1,-,>40 µM
CCN(CC)CCNc1ccnc(NCCCCCCNC(=O)c2ccc(C(=O)NCCCCCCNc3nccc(NCCN(CC)CC)n3)cc2)n1,-,>50 µM
O=C(OCC1OC(OC(=O)c2cc(O)c(O)c(O)c2)C(OC(=O)c2cc(O)c(O)c(O)c2)C(OC(=O)c2cc(O)c(O)c(O)c2)C1OC(=O)c1cc(O)c(O)c(O)c1Oc1cc2c(c(O)c1O)-c1c(cc(O)c(O)c1O)C(=O)OCC1OC(OC(=O)c3cc(O)c(O)c(O)c3)C(OC(=O)c3cc(O)c(O)c(O)c3)C(OC(=O)c3cc(O)c(O)c(O)c3)C1OC2=O)c1cc(O)c(O)c(O)c1,-,93 µM
Nc1nc2c(ncn2[C@@H]2O[C@H](COS(N)(=O)=O)[C@@H](O)[C@H]2O)c(=O)o1,-,>30 µg/mL
Cc1cc(=O)c2c(O)c3c(O)cc(O)c4c5c(O)cc(O)c6c(O)c7c(=O)cc(C)c8c1c2c(c34)c(c65)c78,-,<2 µg/mL
CCOC(=O)c1cc(C(=O)c2ccc3ccccc3c2)n2ccc(C(=O)c3ccccc3)cc12,MTT,167.4 µM
C=C(C)[C@@H]1CC[C@]2(C(=O)O)CC[C@]3(C)[C@H](CC[C@@H]4[C@@]5(C)CC[C@H](OC(=O)CC(C)(C)CC(=O)O)C(C)(C)[C@@H]5CC[C@]43C)[C@@H]12,-,4.5 µM
CC(C)[C@@H]1CC[C@]2(C(=O)O)CC[C@]3(C)[C@H](CC[C@@H]4[C@@]5(C)CC[C@H](OC(=O)C(C)(C)CC(=O)O)C(C)(C)[C@@H]5CC[C@]43C)[C@@H]12,-,7.7 µM
C[C@H](Cc1ccc(OC(=O)CN(C)C)c(OC(=O)CN(C)C)c1)[C@@H](C)Cc1ccc(OC(=O)CN(C)C)c(OC(=O)CN(C)C)c1,-,>100 µM
CC(C)C(NC(=O)C[C@@H]1O[C@@H]1[C@H](Cc1ccccc1)NC(=O)[C@@H](NC(=O)OCc1cccnc1)C(C)(C)S(C)(=O)=O)C(C)C,-,>100 µM
CC12CCC[C@]3(C(=O)OC1)[C@@H]2CC[C@@]12C[C@@H](CC[C@H]13)[C@@](C)(O)C2,-,3.1 µM
C=C(C)[C@@H]1CC[C@]2(/C=N/OC(=O)CC(C)(C)CC(=O)O)CC[C@]3(C)[C@H](CC[C@@H]4[C@@]5(C)CC/C(=N\OC(=O)CC(C)(C)CC(=O)O)C(C)(C)[C@@H]5CC[C@]43C)[C@@H]12,-,15.4 µM
CC(C)CCNc1ccnc(NCCCNC(=O)c2ccc(C(=O)NCCCNc3nccc(NCCC(C)C)n3)cc2)n1,-,6.3 µM
CCCCn1cc(N)c(=O)c2cnc(-c3ccncc3)nc21,-,>50 µM
CCC(O)C(N)C(=O)O,-,>750 µM
CCN(CC)CCNc1nc(NCCCCCCNC(=O)c2ccc(C(=O)NCCCCCCNc3nc4c(c(NCCN(CC)CC)n3)CC=CC4)cc2)nc2c1CC=CC2,-,1.5 µM
O=C(CCCC[C@@H]1SC[C@@H]2NC(=O)N[C@@H]21)NCCOCCOCCOc1cc(C2(C(F)(F)F)N=N2)ccc1C(=O)NCCOCCOCCNC(=O)c1cc(C(=O)c2ccc3ccccc3c2)n2ccc(C(=O)c3ccccc3)cc12,MTT,160.1 µM
CC(C)[C@@H](NC(=O)C[C@@H]1O[C@@H]1[C@H](Cc1ccccc1)NC(=O)[C@@H](NC(=O)OCc1ccccn1)C(C)(C)S(C)(=O)=O)c1ccccc1,-,>100 µM
CC1(C)Oc2ccc3ccc(=O)oc3c2C(OC(=O)c2cccc(Cl)c2)C1OCc1ccccc1,-,15.5 µM
C=C(CC[C@@H](C)[C@H]1CC=C2C3=C([C@@H](O)[C@H](OC(C)=O)[C@@]21C)[C@@]1(C)C[C@@H](OC(=O)CCC(=O)O)[C@H](O)C(C)(C)[C@@H]1CC3)C(C)C,MTT,<6 µM
CC1(C)Oc2ccc3ccc(=O)oc3c2C(OC(=O)c2cccc(Cl)c2)C1O,-,10.08 µM
COC(=O)CNC(=O)CNC(=O)CNC(=O)CNC(=O)c1cc(C(=O)c2ccc3ccccc3c2)n2ccc(C(=O)c3ccccc3)cc12,MTT,137.4 µM
C=C(C)[C@@H]1CC[C@]2(COC(=O)CCC(=O)O)CC[C@]3(C)[C@H](CC[C@@H]4[C@@]5(C)CC[C@H](OC(=O)CCC(=O)O)C(C)(C)[C@@H]5CC[C@]43C)[C@@H]12,-,35.3 µM
COC1C(OC(=O)c2cccc(Cl)c2)c2c(ccc3ccc(=O)oc23)OC1(C)C,-,81.94 µM

A second listing of 6 rows from above:

structure | read by | value
Nc1ncnc2c1ncn2[C@@H]1O[C@H](CO)C[C@H]1N1CCOCC1 | - | >40 µM
CCN(CC)CCNc1ccnc(NCCCNC(=O)CCC(=O)NCCCNc2nccc(NCCN(CC)CC)n2)n1 | - | >50 µM
O=C(CCCC[C@@H]1SC[C@@H]2NC(=O)N[C@@H]21)NCCOCCOCCOc1cc(C2(C(F)(F)F)N=N2)ccc1C(=O)NCCOCCOCCNC(=O)c1cc(C(=O)c2ccc3ccccc3c2)n2ccc(C(=O)c3ccccc3)cc12 | MTT | 160.1 µM
C[C@H](Cc1ccc(OC(=O)CN(C)C)c(OC(=O)CN(C)C)c1)[C@@H](C)Cc1ccc(OC(=O)CN(C)C)c(OC(=O)CN(C)C)c1 | - | >100 µM
Cc1cn([C@H]2C[C@H](N=[N+]=[N-])[C@@H](CO)O2)c(=O)[nH]c1=O | - | 1873 µM
COc1ccc2c(c1OC)C(CC(C)=O)N(C)c1c-2ccc2cc3c(cc12)OCO3 | - | 25.8 µM